For this assay, the target named is SidK(16-278), N-terminal domain of SidK (L. pneumophila strain Philadelphia 1).

With SidK(16-278), N-terminal domain of SidK, the percent eluting as apparent dimer came to 10% and the percent eluting as monomer stood at 90%.

These data come from PMC5469503 (PLoS Pathogens, 2017).
